## Primary screen of a compound library

A: 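Phenotypic screen: M. tuberculosis growth, glucose 7H9 medium, 3 days; the read-out is not stated. Concentration: 500 µM. Higher reads as more growth inhibition (inferred: compounds with an IC50 in retests scored well above the rest). About 18,000 compounds were tested under these conditions; 7.9% (about 1,400) showed 50% or more at least once.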
B: 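Phenotypic screen: M. tuberculosis growth, cholesterol and DPPC medium, 4 days; the read-out is not stated. Concentration: 500 µM. The record gives no direction; compounds that gave an IC50 in retests scored well above the rest, so higher reads as more growth inhibition. Size under these conditions: about 18,000 compounds, about 900 of them at 50% or above in at least one test.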

The filed quantity is “Percent Effect” (%).
The record does not define 0% and 100%; most values in the screen are far below 50% and negative numbers occur (in some assays of this library far below -100).
The entries come from a sample that favours strong results.

Result for CCc1nsc(N2CCSCC2)n1 was A: 33.18%.
Result for Cc1occc1S(=O)(=O)Cc1nc(C2CC2)n[nH]1 was B: -1.792%.
Result for CCOC(=O)c1cnccc1N was A: -9.997%.
Result for C[C@@H]1CN(C(=O)c2cccc3cc[nH]c23)CCN1 was A: 31.61%.
Result for COCCNC(=O)COc1ccc2c(c1)OCO2 was A: 53.75%; B: 38.13%.
Result for CN(C)C1CCCN(C(=O)c2ccc(Br)cn2)C1 (centres undefined) was A: 8.746%.
Result for CCCS(=O)(=O)NC1CCN(c2ccncc2Cl)CC1 was A: 48.98%.
Result for CCS(=O)(=O)N1CCCN(C(=O)NC(C)(C)C)CC1 was B: -3.882%.
Result for COCc1nc(C)cc(N(C)Cc2ccc(N)nc2)n1 was A: 28.16%.
Result for NC(=O)N1CCC(NCc2sccc2Cl)CC1 was A: 3.447%.
Result for CC(O)CN(C)c1cc(N2CCCCC2)ncn1 (centres undefined) was B: 12.47%.
Result for NC(=O)C1CCCCN1CC(=O)NC1CCCCC1 (centres undefined) was B: -12.52%.
Result for COc1cccc(CC(=O)N(C)Cc2cnccn2)c1 was B: -4.411%.
Result for CS(=O)(=O)N1CCC(C(=O)N2CCCC2)CC1 was A: 9.208%.
Result for CCOc1cccc(OCCCN2CCNCC2)c1 was A: 14.29%.
Result for CC(C)(C)c1n[nH]cc1CNCC(=O)N1CCCC1 was A: 7.452%; B: 10.94%.
Result for CC1Oc2ccc(NC(=O)c3ccco3)cc2NC1=O (centres undefined) was B: 28.05%.
Result for Cn1cc(CS(=O)(=O)c2ccccc2F)cn1 was B: 1.709%.
Result for COc1nc(C)cc(C)c1CN was A: 21.66%.
Result for O=C([C@H]1CC[C@@H](O)CC1)N1CCC(c2nnc[nH]2)CC1 was A: 8.206%.
Result for CC(NC(=O)c1sccc1C1CC1)C(N)=O (centres undefined) was A: 12.98%; B: 10.19%.
Result for N#Cc1ccc(S(=O)(=O)N2CCC[C@@H](N)C2)cc1Cl was A: 29.15%; B: 27.62%.
Result for Cc1ccc(F)c(N2CCC(N)CC2)c1 was A: 31.07%; B: 16.88%.
Result for CC(=O)c1csc(C(=O)Nc2n[nH]c(C3CCC3)n2)c1 was B: -5.105%.
Result for O=C(NCCN1CCCC1)c1ccccc1F was A: 15.96%.
Result for c1ncn(C2CCCCC2)c1CN1CCNCC1 was A: -6.853%.
Result for Cc1nc(CC(=O)NCCSc2nnnn2C)c(C)s1 was A: 24.08%.
Result for CS(=O)(=O)c1cccc(Cl)c1C#N was B: -27.61%.
Result for CSc1nnc(CN(C)CCO)s1 was A: 54.07%; B: 48.93%.
Result for O=C(NC1CC1)c1snnc1-c1ccccc1 was A: 29.86%.
Result for CNS(=O)(=O)N1CCc2ccccc2C1 was A: 21.92%; B: 9.897%.
Result for CCNc1ccnc(C(=O)NCc2ccccc2)c1 was A: 59.08%.
Result for CNC(=O)NC(=O)CSc1ccccn1 was A: 6.619%; B: 48.43%.
Result for CNC(=O)C1CCCN1C(=O)C(C)(C)C (centres undefined) was A: 5.895%.

The first 2 entries again:

- CCc1nsc(N2CCSCC2)n1 : A: 33.18%
- Cc1occc1S(=O)(=O)Cc1nc(C2CC2)n[nH]1 : B: -1.792%

Measurements from “University of Dundee, Small-Polar-MMV Screening Library” (2021), ChEMBL document CHEMBL3988442.